Patent publication US20020094524A1, “Compositions and methods for inhibiting HIV infection” (priority 2000, published 2002)

Protein sequences, listed by entry. Tags and fused reporters are not part of them.
UniProt P25103, whole entry: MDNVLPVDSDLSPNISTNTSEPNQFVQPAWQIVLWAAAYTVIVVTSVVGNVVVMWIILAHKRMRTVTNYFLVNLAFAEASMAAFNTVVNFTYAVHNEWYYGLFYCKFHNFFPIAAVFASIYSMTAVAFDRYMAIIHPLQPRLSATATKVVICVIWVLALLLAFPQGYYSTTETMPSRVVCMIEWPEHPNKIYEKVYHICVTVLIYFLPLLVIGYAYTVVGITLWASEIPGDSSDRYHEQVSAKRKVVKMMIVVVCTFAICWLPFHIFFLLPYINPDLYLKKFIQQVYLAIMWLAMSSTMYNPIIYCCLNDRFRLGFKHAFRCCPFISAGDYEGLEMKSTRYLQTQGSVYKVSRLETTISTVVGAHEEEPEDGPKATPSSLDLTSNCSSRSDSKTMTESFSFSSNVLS

Target: Neurokinin-1 receptor (NK-1R) (human) (UniProt P25103)
Experiment: cell-based or functional assay

Substance “Substance P (SP) (from UniProt P20366 58-68) (peptide)” has an HIV RT activity in MDM, increase at SP 10^-6M of 58%, an HIV RT activity in MDM, increase at SP 10^-8M of 40% and an HIV RT activity in MDM, increase at SP 10^-10M of 14%.
